In US10266566B2, “Protease-resistant peptide ligands” (North Carolina State University, priority 2013, dated 2019):

Columns and labels:
IgG [1] = conditions: protein ligands for antibody purification; read-out: dissociation constant; cited from earlier work
IgG [2] = assay: Purification of IgG (IVIG) from Cohn fraction II+III of human plasma, yield and purity; conditions: binding 0.25M NaCl in PBS
Description: Cohn fraction II+III was dissolved in PBS, pH 7.4 to obtain an approximate IgG concentration of 5 mg/mL and filtered sequentially using a 0.44 μm and a 0.22 μm filter from Pall Corporation (Port Washington, N.Y., USA). Each peptide resin was packed and swollen as described before. After equilibration with PBS buffer containing 0.25M NaCl, 100 μL of feed sample was loaded onto the column at a flow rate of 0.05 mL/min (87 cm/h). After washing the column with 2 mL of equilibration buffer at a flow rate of 0.2 mL/min (348 cm/h), elution was performed with 4 mL of 0.2M acetate buffer pH 5.0 at a flow rate of 0.4 mL/min (696 cm/h). […] The effluent was monitored by absorbance at 280 nm. […]
The amount of IgG in the collected fractions was quantified by HPLC using 1 mL HiTrap Protein G column. The yield of IgG was calculated as the ratio of IgG eluted to total IgG loaded. The purity of IgG in the eluted fractions was determined by sodium dodecyl sulfate polyacrylamide gel electrophoresis (SDS-PAGE) under reducing conditions using NuPAGE® Novex 4-12% Bis-Tris gels in a Xcell SuperLock™ Mini-Cell system (LifeSciences, Carlsbad, Calif., USA). […] The IgG purity was determined by densitometric analysis of Coomassie-stained gels by means of ImageJ 1.32j software (National Institutes of Health, Bethesda, Md., USA). […]

In the case of “Protein A: protein affinity ligand; Toyopearl AF-rProtein A-650F resin used as positive control”, the Kd (IgG [1]) is given as about 10 nM, the “IgG Yield” value (IgG [2]; elution 0.2M acetate pH 5.0 (Protein A: PBS binding, 0.1M glycine pH 2.5 elution)) is given as 94% and the “IgG Purity” value (IgG [2]; densitometry of SDS-PAGE, elution pH 5.0 (Protein A: PBS, glycine pH 2.5)) is given as 75%.
